Experiments:
mice = experiment: Intracranial injection into mice; settings: intracranial injections; original characterization, not previously reported
Swiss Webster mice = experiment: Intraperitoneal injection in mice, observation of paralysis; settings: ~2.3 nmol/g mouse i.p.; three mice (22.34, 8.65, 8.52 g)

CC[C@H](C)[C@@H]1NC(=O)[C@H](CC(C)C)NC(=O)[C@H](CCCNC(=N)N)NC(=O)[C@H](CC(=O)O)NC(=O)[C@H](CCCNC(=N)N)NC(=O)[C@H](Cc2ccccc2)NC(=O)[C@H](Cc2ccc(O)cc2)NC(=O)[C@H](CC(C)C)NC(=O)[C@@H]2CCCN2C(=O)[C@@H]2CSSC[C@@H](C(=O)O)NC(=O)[C@@H]3CSSC[C@H](NC(=O)[C@H](CCCCN)NC(=O)[C@@H]4CCC(=O)N4)C(=O)N[C@@H](CSSC[C@H](NC1=O)C(=O)N1CCC[C@H]1C(=O)N3)C(=O)N[C@@H](CO)C(=O)NCC(=O)NCC(=O)N[C@@H](CO)C(=O)N2 [αM-MIIIJ]
visible phenotype (mice): did not elicit a visible phenotype
reduced motor function or paralysis (Swiss Webster mice): without any reduced motor function or paralysis for >1.5 h
